PubChem BioAssay AID504761 – Drosophila RNAi Screening Center | 2011
The screen tested about 22,000 reagents; this is a random part of those with a known target gene and a result. Over the whole deposit, 116 (0.52%) were called active. 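Calls depend on retest data that are not deposited; infection was ranked per plate without normalising between plates; the unit of the infection score is not given.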 The raw values are shown without normalisation. The numbers tell different reagents against one gene apart. A plus sign joins genes that one reagent is predicted to hit. Not given: the amount of reagent, the time to read-out.

Purpose: 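Genome-wide fly cell screen for genes dengue virus requires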 (primary screen)
Cell system: D.Mel-2 cells from Drosophila
Reagent: long dsRNA against Drosophila genes
Challenge: infection with dengue virus type 2; dose and infection time not stated
Detection: 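Cells stained for dengue envelope protein and imaged; percent of infected cells per well on duplicate plates, ranked by infection, with stained nuclei counted for cell number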
Direction: infection score: higher = more virus-infected cells; cell count: higher = more cells in the well
Hit rule: 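Low infection ranks in the two replicates (chance level up to 0.065) followed by a retest with a 1.5-fold or larger significant decrease, p below 0.05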
Meaning of the calls: active = confirmed: knock-down lowers infection; inactive = not picked or not confirmed

| target | reagent no. | infection score, replicate 1 | infection score, replicate 2 | cell count, replicate 1 | cell count, replicate 2 | activity call |
| --- | --- | --- | --- | --- | --- | --- |
| CG18473 | 1 | 7.42 | 4.98 | 6694 | 6870 | inactive |
| Seipin | 1 | 5.66 | 6.83 | 6974 | 967 | inactive |
| meng | 1 | 1.11 | 2.38 | 6500 | 6769 | inactive |
| meng | 2 | 21.4 | 25.3 | 5690 | 4544 | inactive |
| mod(mdg4) | 1 | 2.64 | 0.61 | 6140 | 5911 | inactive |
| mod(mdg4) | 2 | 3.62 | 1.17 | 6383 | 6093 | inactive |
| mod(mdg4) | 3 | 1.54 | 5.69 | 5919 | 5712 | inactive |
| kuk | 1 | 12.6 | 4.06 | 5753 | 6632 | inactive |
| kuk | 2 | 3.46 | 1.97 | 6294 | 6144 | inactive |
| CG7218 | 1 | 24.8 | 22.1 | 4499 | 5817 | inactive |
| CG7218 | 2 | 1.85 | 5.37 | 6860 | 708 | inactive |
| CG7379 | 1 | 2.33 | 11.7 | 6101 | 6361 | inactive |
| CG7379 | 2 | 5.12 | 1.06 | 5943 | 6019 | inactive |
| WRNexo | 1 | 2.39 | 5.81 | 6279 | 6298 | inactive |
| Rok | 1 | 19.9 | 3.89 | 6646 | 6624 | inactive |
| Rok | 2 | 2.28 | 15.7 | 7491 | 6246 | inactive |
| CG32379 | 1 | 1.95 | 2.68 | 6349 | 6306 | inactive |
| caz | 1 | 1.97 | 3.87 | 6144 | 6841 | inactive |
| caz | 2 | 8.73 | 10.6 | 5535 | 6637 | inactive |
| CG34426 | 1 | 1.16 | 1.3 | 6451 | 6170 | inactive |
| Cchl | 1 | 4.12 | 7.74 | 5995 | 6392 | inactive |
| Gart | 1 | 10.1 | – | 2500 | 547 | inactive |
| Gart | 2 | 14.9 | 8.62 | 5159 | 6823 | inactive |
| Tim10 + CG42497 | 1 | 3.49 | 15.8 | 7104 | 3433 | inactive |
| SdhB | 1 | 1.14 | 1.97 | 6059 | 6441 | inactive |
| SdhB | 2 | 2.36 | 6.1 | 6007 | 6068 | inactive |
| Wdr82 | 1 | 0.95 | 15 | 6433 | 5548 | inactive |
| Wdr82 | 2 | 2.73 | – | 878 | 352 | inactive |
| Or82a | 1 | 1.6 | 2.92 | 6450 | 6230 | inactive |
| Sec61beta | 1 | 20.9 | 6.38 | 6469 | 6317 | inactive |
| Sec61beta | 2 | 0.03 | 0.22 | 5741 | 5944 | active |
| Sec61beta | 3 | – | – | 386 | 408 | inactive |
| CG15202 | 1 | 7.11 | 10.5 | 6495 | 6795 | inactive |
| CG30091 | 1 | 1.78 | 6.21 | 6793 | 6681 | inactive |
| CG30091 | 2 | 10.4 | 10.9 | 6321 | 6665 | inactive |
| CG7536 | 1 | 1.38 | 1.81 | 6813 | 6460 | inactive |
| Zip42C.1 | 1 | 6.88 | 12.2 | 6906 | 6288 | inactive |
| Pax | 1 | 8.36 | 3.05 | 5824 | 5648 | inactive |
| Pax | 2 | 15.2 | 17.7 | 6515 | 6035 | inactive |
| Pax | 3 | 6.19 | 17.2 | 5571 | 5955 | inactive |
| CG2898 | 1 | 3 | 24.4 | 1767 | 6191 | inactive |
| CG15498 | 1 | – | 11.4 | 367 | 6781 | inactive |
| Prosbeta7 | 1 | 1.08 | 0.73 | 831 | 546 | inactive |
| CG7304 | 1 | 0.96 | 0.47 | 5540 | 5909 | inactive |
| CG7304 | 2 | 10.1 | 10.8 | 5208 | 5328 | inactive |
| Src42A | 1 | 1.55 | 9.09 | 6367 | 6381 | inactive |
| CG11403 | 1 | 8.84 | 1.85 | 5680 | 6050 | inactive |
| mRpL36 | 1 | 8.53 | 10.8 | 4899 | 4858 | inactive |
| Mitf | 1 | 5.85 | 0.48 | 4734 | 415 | inactive |
| Mitf | 2 | 5.17 | 5.62 | 5955 | 6856 | inactive |
| wtrw | 1 | 4.02 | 6.38 | 6897 | 6517 | inactive |
| wtrw | 2 | 6.67 | 14.2 | 6475 | 5247 | inactive |
| wtrw | 3 | 11.5 | 1.61 | 6285 | 6203 | inactive |
| CG6928 | 1 | 13.5 | 15 | 5438 | 5731 | inactive |
| CG2111 | 1 | 2.26 | 2.37 | 6516 | 6506 | inactive |
| CG2111 | 2 | 3.26 | 4.34 | 6772 | 6702 | inactive |
| Cdc6 | 1 | 7.01 | 13.9 | 1896 | 4193 | inactive |
| GNBP2 | 1 | 1.52 | 15.2 | 6431 | 5698 | inactive |
| CG4646 | 1 | 14.2 | 7.87 | 5499 | 6833 | inactive |
| CG34247 | 1 | 5.88 | 20.6 | 6413 | 5375 | inactive |
| CG8249 | 1 | 9.61 | 8.58 | 6536 | 6734 | inactive |
| Obp19d | 1 | 15 | 5.32 | 5829 | 5205 | inactive |
| CG34408 | 1 | 5.8 | 3.29 | 6764 | 6875 | inactive |
| CG34408 | 2 | 0.32 | 1.76 | 6529 | 6708 | inactive |
| CG34408 | 3 | 21 | 7.01 | 6254 | 6762 | inactive |
| CG34408 | 4 | 0.3 | 0.73 | 330 | 547 | inactive |
| CG9483 | 1 | 19.6 | 23.4 | 5833 | 4680 | inactive |
| CG9483 | 2 | 2.02 | 1.94 | 6725 | 6511 | inactive |
| wor | 1 | 11.9 | 17.7 | 6121 | 5553 | inactive |
| wor | 2 | 2.34 | 0.8 | 6321 | 6403 | inactive |
| CG18540 | 1 | 12.3 | 13.4 | 5081 | 5610 | inactive |
| CG18540 | 2 | 9.01 | 6.98 | 6682 | 5787 | inactive |
| CG10866 | 1 | 0.92 | 3.28 | 6433 | 5522 | inactive |
| CG10866 | 2 | 0.27 | 8.78 | 377 | 1537 | inactive |
